A mixed list of measured activities; the numbers were collected in NIAID ChemDB.

All rows: tests in culture; species: HIV-1; read-out: EC50

ECn: concentration that inhibits the pathogen or its effect by n%. Two numbers with a dash give a range or band. Rows are shuffled and stem from different studies. Blank or dashed fields: not listed here.

smiles	strain or isolate	changes	cell line	read by	conditions	value
CC(C)C1=C2[C@H]3CC[C@@H]4[C@@]5(C)CC[C@H](OC(=O)[C@H]6C[C@@H](C(=O)O)C6(C)C)C(C)(C)[C@@H]5CC[C@@]4(C)[C@]3(C)CC[C@@]2([C@@H](O)CNC(=O)C(F)(F)NC(=O)c2ccc(Cl)cc2)CC1=O	92HT599	-	MT-2	p24 / ELISA	-	<1 µM
Nc1nc(NC2CC2)c2ncn([C@H]3C=C[C@@H](CO)C3)c2n1	SF162	-	MDM + PBMC	p24	-	>0.5 µM
C=C(C)C1CC[C@]2(C(=O)O)CC[C@]3(C)C(CCC4[C@@]5(C)C[C@@H](OC(C)=O)[C@H](O)C(C)(C)C5CC[C@]43C)C12	Tat/Rev-defective	-	1A2	syncytia	-	5.6 µg/mL
COC(=O)c1ccc(OC(C)C(=O)N2CCC(=C(c3ccccc3)c3cccnc3)CC2)c(OC)c1	-	-	HeLa CD4	luciferase / reporter gene	-	>1 µM
Cc1cc(C#N)cc(C)c1Oc1nc(Nc2ccc(C#N)cc2)nc(N)c1Br	-	NL/2AZT	TZM-bl	-	-	0.036 µM
C[C@@H](O)CCCCn1c(=O)c2c(ncn2C)n(C)c1=O	LAV	-	U1(HIV-1 (LAV)) + U1	p24	-	20–200 µM
O=C(O)c1cc(-n2cccc2)ccc1Cl	SF162 R5 CLADE B	-	PBMC/5.25M7	luciferase / cell fusion	-	93.06 µM
CC(C)C1=C2[C@H]3CC[C@@H]4[C@@]5(C)CC[C@H](OC(=O)[C@H]6C[C@@H](C(=O)O)C6(C)C)C(C)(C)[C@@H]5CC[C@@]4(C)[C@]3(C)CC[C@@]2(CCNCc2cccnc2N2CCOCC2)CC1=O	92HT599	-	MT-2	p24 / ELISA	-	<1 µM
NCC1OC(n2cnc3c(N)ncnc32)C(OP(=O)(O)OCC2OC(n3cnc4c(N)ncnc43)C(OP(=O)(O)OCC3OC(n4cnc5c(N)ncnc54)C(O)C3O)C2O)C1O	IIIB	-	SupT1 + Sup-T1	syncytia	-	>100 µM
CC(C)C1=C2[C@H]3CC[C@@H]4[C@@]5(C)CC[C@H](OC(=O)[C@H]6C[C@@H](C(=O)O)C6(C)C)C(C)(C)[C@@H]5CC[C@@]4(C)[C@]3(C)CC[C@@]2(CC(=O)NCC(C)(C)NC(=O)c2ccc(Cl)cc2OC2CCNCC2)CC1=O	92HT599	-	MT-2	p24 / ELISA	-	<1 µM
O=S(=O)(O)c1cc(N=C=S)ccc1/C=C/c1ccc(N=C=S)cc1S(=O)(=O)O	-	-	JM	-	-	≥30 µM
CC(C)=CCN1CC(C)Cn2c(=S)[nH]c3cccc1c32	N119(RT-Y181C)	RT-Y181C	CEM(SS) + CEM-SS	cytopathic effect / XTT	-	>27.2 µM
CCCCCCCCCCCCCCCC(=O)NCC1OC(n2cnc3c(N)ncnc32)C(OP(=O)(O)OCC2OC(n3cnc4c(N)ncnc43)C(OP(=O)(O)OCC3CC(O)C(n4cnc5c(N)ncnc54)O3)C2O)C1O	IIIB	-	SupT1 + Sup-T1	syncytia	-	<100 µM
Cc1cc(S(N)(=O)=O)ccc1NC(=O)COc1ccc(Cl)cc1C(=O)c1cc(Cl)cc(C#N)c1	HXB2	RT-V106A Y181C	HeLa + HELA CD4+	β-galactosidase	-	<0.01 µM
CC(C)C1=C2[C@H]3CC[C@@H]4[C@@]5(C)CC[C@H](OC(=O)[C@H]6C[C@@H](C(=O)O)C6(C)C)C(C)(C)[C@@H]5CC[C@@]4(C)[C@]3(C)CC[C@@]2(CC(=O)NCC(F)(CCCN)NC(=O)c2ccc(Cl)cc2)CC1=O	92HT599	-	MT-2	p24 / ELISA	-	<1 µM
COC(=O)c1ccc(OC(C)C(=O)N2CCC(=C(C#N)c3ccccc3)CC2)c(OC)c1	-	-	HeLa CD4	luciferase / reporter gene	-	≤1 µM
CC(C)C1=C2[C@H]3CC[C@@H]4[C@@]5(C)CC[C@H](OC(=O)[C@H]6C[C@@H](C(=O)O)C6(C)C)C(C)(C)[C@@H]5CC[C@@]4(C)[C@]3(C)CC[C@@]2(CC(=O)NCC(C)(C)NC(=O)c2ccc(N)nc2)CC1=O	92HT599	-	MT-2	p24 / ELISA	-	<1 µM
Cc1cc(OCCCS(N)(=O)=O)ccc1NC(=O)COc1ccc(Cl)cc1C(=O)c1cc(F)cc(C(F)(F)F)c1	HXB2	RT-V108I Y181C	HeLa + HELA CD4+	β-galactosidase	-	<0.01 µM
CCOC(=O)c1cc(C(=O)c2ccc(N)cc2)n2ccc(C(=O)NCc3ccccn3)cc12	-	-	H9	p24 / antigen	-	108.7 µM
COc1ccc(-c2oc3cc(OC)cc(O)c3c(=O)c2O)cc1	deltaTAT/Rev MC99	-	1A2	syncytia	-	43.3 µM
Cc1cc(C)cc(C(=O)c2cc(Cl)ccc2OCC(=O)Nc2ccc(S(N)(=O)=O)cc2C)c1	HXB2	RT-K103N P225H	HeLa + HELA CD4+	β-galactosidase	-	<0.01 µM
Cc1ccc(CNC(=O)C[C@@]23CC[C@]4(C)[C@H](CC[C@@H]5[C@@]6(C)CC[C@H](OC(=O)[C@H]7C[C@@H](C(=O)O)C7(C)C)C(C)(C)[C@@H]6CC[C@]54C)C2=C(C(C)C)C(=O)C3)cc1	92HT599	-	MT-2	p24 / ELISA	-	<1 µM
Cc1cc2cn[nH]c2cc1NC(=O)COc1ccc(Cl)cc1C(=O)c1cccc(C#N)c1	HXB2	RT-P236L	HeLa + HELA CD4+	β-galactosidase	-	0.011–0.1 µM
C=C(C)C1CC[C@]2(C(=O)O)CC[C@]3(C)C(CCC4[C@@]5(C)C[C@@H](O)[C@H](OC(C)=O)C(C)(C)C5CC[C@]43C)C12	Tat/Rev-defective	-	1A2	syncytia	-	6 µg/mL
Cc1ccc(/C=c2\c(=O)sc3nc4c(c(=S)n23)C2=C(CCC/C2=C\c2ccncc2)C(c2ccncc2)S4)cc1	-	-	T4	MTT	-	71.3 µM
Cc1cc(C#N)cc(C(=O)c2cc(Cl)ccc2OCC(=O)Nc2ccc(S(N)(=O)=O)nc2C)c1	HXB2	RT-V108I	HeLa + HELA CD4+	β-galactosidase	-	<0.01 µM
Nc1nc2c(ncn2C2[C@H](CO)[C@H]2CO)c(=O)[nH]1	-	-	ATH-8 + ATH8	-	-	>100 µg/mL
CCOC(=O)c1cc(C(=O)c2ccc([N+](=O)[O-])cc2)n2ccc(C(=O)NCc3ccccn3)cc12	-	-	H9	p24 / antigen	-	20.5 µM
COC(=O)c1ccc(OC(C)C(=O)N2CC/C(=C(\C#N)c3ccccc3)CC2C)c(OC)c1	-	-	HeLa CD4	luciferase / reporter gene	-	≤1 µM
Clc1cc(CN2CCCNCCNCCCNCC2)cc(Cl)n1	BAL R5	-	HOS-CD4-CCR5 + HOS	p24	-	8.3 µM
COc1cc(O)c2c(=O)c(O)c(-c3ccc(OC)c(O)c3)oc2c1	deltaTAT/Rev MC99	-	1A2	syncytia	-	79.9 µM
CC(C)C1=C2[C@H]3CC[C@@H]4[C@@]5(C)CC[C@H](OC(=O)[C@H]6C[C@@H](C(=O)O)C6(C)C)C(C)(C)[C@@H]5CC[C@@]4(C)[C@]3(C)CC[C@@]2([C@@H](O)CNC(=O)C2(N)CCC2)CC1=O	92HT599	-	MT-2	p24 / ELISA	-	<1 µM
CCOC1N=C2C3=C(N=C(C)N2N1c1ccccc1)SC(c1ccncc1)C1=C3/C(=C/c2ccncc2)CCC1	-	-	T4	MTT	-	69.8 µM
Cc1cc2[nH]cnc2cc1NC(=O)COc1ccc(Cl)cc1C(=O)c1cc(F)cc(C(F)(F)F)c1	HXB2	RT-E138K	HeLa + HELA CD4+	β-galactosidase	-	<0.01 µM
C=C1CC[C@H]2C(C)(C)CCC[C@]2(C)[C@H]1CCC1=CC(=O)OC1	deltaTAT/Rev MC99	-	1A2	syncytia	-	86.6 µM
CC(C)C1=C2[C@H]3CC[C@@H]4[C@@]5(C)CC[C@H](OC(=O)[C@H]6C[C@@H](C(=O)O)C6(C)C)C(C)(C)[C@@H]5CC[C@@]4(C)[C@]3(C)CC[C@@]2(CCNC(=O)c2ccc(F)cc2)CC1=O	92HT599	-	MT-2	p24 / ELISA	-	<1 µM
CCCCCCCCCCCCCCCCCCOP(=O)(OCCCC)OP(=O)(O)OP(=O)(O)OP(=O)(O)OC[C@@H]1C=C[C@H](n2cc(C)c(=O)[nH]c2=O)O1	HE	-	CD4+ T-cell	syncytia / visual reading	-	0.07 µM
N[C@H](C(=O)Nc1cncc(F)c1CC[C@@H]1CN[C@H](COC(=O)NCC(F)(F)F)CO1)[C@@H](c1ccc(Cl)cc1)c1cc(F)cc(F)c1	IIIB	-	MT4-GFP	fluorescence	-	0.049 µM
CC(C)C1=C2[C@H]3CC[C@@H]4[C@@]5(C)CC[C@H](OC(=O)[C@H]6C[C@@H](C(=O)O)C6(C)C)C(C)(C)[C@@H]5CC[C@@]4(C)[C@]3(C)CC[C@@]2(CCNCC2CCNCC2)CC1=O	92HT599	-	MT-2	p24 / ELISA	-	<1 µM
Cc1cc(S(N)(=O)=O)ccc1NC(=O)COc1ccc(Cl)cc1C(=O)c1cccc(C#N)c1	HXB2 (RT-K103N Y181C) Recombinant	RT-K103N Y181C	HeLa + HELA CD4+	β-galactosidase	-	0.011–0.1 µM
CC(C)(O)[C@@H]1CC[C@@]2(C)CCC[C@@](C)(O)[C@@H]2C1	deltaTAT/Rev MC99	-	1A2	syncytia	-	277.1 µM
CC1=C(/C=C/C(C)=C\C=C\C(C)=C\C(=O)O)C(C)(C)CCC1	IIIB	-	ACH-2 (chronically infected) + ACH2	MTT / p24	10 d, chronic infection	>0.1 µM

Repeating the final 3 entries:

smiles	strain or isolate	changes	cell line	read by	conditions	value
Cc1cc(S(N)(=O)=O)ccc1NC(=O)COc1ccc(Cl)cc1C(=O)c1cccc(C#N)c1	HXB2 (RT-K103N Y181C) Recombinant	RT-K103N Y181C	HeLa + HELA CD4+	β-galactosidase	-	0.011–0.1 µM
CC(C)(O)[C@@H]1CC[C@@]2(C)CCC[C@@](C)(O)[C@@H]2C1	deltaTAT/Rev MC99	-	1A2	syncytia	-	277.1 µM
CC1=C(/C=C/C(C)=C\C=C\C(C)=C\C(=O)O)C(C)(C)CCC1	IIIB	-	ACH-2 (chronically infected) + ACH2	MTT / p24	10 d, chronic infection	>0.1 µM